Results from article PMC9867676.
For at least one entry, the source does not settle the construct or the ends of the probe.

Chains of the proteins cited; added tags and fusions are not shown. Lines headed by an entry give the natural chain unless they say otherwise; changes in a name come on top.
UniProt Q7A1N5: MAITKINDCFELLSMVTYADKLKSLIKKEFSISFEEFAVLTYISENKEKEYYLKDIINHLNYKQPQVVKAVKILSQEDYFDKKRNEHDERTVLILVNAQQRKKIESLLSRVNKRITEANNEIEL

Target: SarA (UniProt Q7A1N5)
Experiment: EMSA
Conditions: 1 fmol probe, increasing SarA, 50 mM Tris-HCl, 300 mM NaCl, pH 8.0 ([…], room temperature, recombinant protein, label: FAM (reverse primer P-rinA-FAM-R), probe letters rebuilt from the primers and the genome

**Q.** Does “GAATACCCTCCGTACAAATATGTTTAATCTTCAAAGTGTCTCAATCTACTTCTTAATATCTCTATCTCTCGCTCTTTAACTTTTACATCACCTTTTAACTGTTCCGCTTGTAACATCACACCAAACAATAAGATGACTAGTAATATAATTGCTATGATTAACCACATCATCTACTCCGAC (double strand) [rinA promoter fragment (FAM)]” bind?
**A.** binds
